Data from publication PMC8401404 (Molecules, 2021).

Columns and labels:
ctDNA = test: CD titrations; type: binding, calf; details: pH 7.0, sodium cacodylate buffer
calf thymus DNA (ctDNA) = test: Fluorimetric titrations with ctDNA; details: I0 starting intensity of compound, I intensity of complex calculated by Scatchard equation; pH 7.0

SMILES	binding mode to ctDNA suggested by CD/ICD spectra (ctDNA)	fluorescence intensity ratio I/I0 with ctDNA (calf thymus DNA (ctDNA))
CC(C)NC(=N)c1ccc2nc(-c3ccc(-c4ccc([N+](=O)[O-])cc4)o3)sc2c1 [Compound 5, 2-[5-(4-Nitrophenyl)furan-2-yl]-6-N-isopropilamidinobenzothiazole hydrochloride]	inside the ctDNA groove, most probably in the form of a dimer	0.8
Cl.O=[N+]([O-])c1ccc(-c2ccc(-c3nc4ccc(C5=NCCN5)cc4s3)o2)cc1 [Compound 6, 6-(4,5-Dihydro-1H-imidazol-2-yl)-2-[5-(4-nitrophenyl)furan-2-yl]benzothiazole hydrochloride]	intercalative binding	
CC(C)NC(=N)c1ccc2nc(-c3ccc(-c4ccc(Cl)cc4)o3)sc2c1 [Compound 8, 2-[5-(4-Chlorophenyl)furan-2-yl]-6-N-isopropilamidinobenzothiazole hydrochloride]	minor groove binding	0.2
Cl.Clc1ccc(-c2ccc(-c3nc4ccc(C5=NCCN5)cc4s3)o2)cc1 [Compound 9, 2-[5-(4-Chlorophenyl)furan-2-yl]-6-(4,5-Dihydro-1H-imidazol-2-yl)benzothiazole hydrochloride]	minor groove binding	0.5

Structures can show the parent of a compound that is named as a salt.
